Taken from: PubChem BioAssay AID1259414 (Drosophila RNAi Screening Center, 2018)

Test: 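Fly genes that alter Wolbachia amount inside host cells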 (primary screen)
Cell system: Drosophila JW18 cells infected with Wolbachia
Knock-down reagent: long dsRNA against Drosophila genes, 0.25 µg dsRNA per well of a 384-well plate
Time to read-out: 5 days
Treatment: cells persistently infected with Wolbachia before knock-down; no added drug
Measurement: 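Automated imaging of bacterial rRNA staining divided by host cell count, reported as plate-normalised robust z-score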
Direction: Wolbachia per cell robust z: higher = more Wolbachia per host cell than the plate typical
Call rule: 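Hit when robust z is 1.5 or more, or -1.5 or less, in at least two of three replicates; excludes dsRNAs with several or no targets, genes not expressed in JW18 and well A1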
In all, the deposit lists about 24,000 reagents; below is a random part of those with a known target gene and a result. Over the whole deposit, about 1,210 (5%) got an active call. 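Inactive calls also include excluded dsRNAs with several or no targets, genes unexpressed in JW18, and well A1, regardless of score.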 Entries without a mark were called inactive. Names joined by + are all predicted targets of the reagent.

Wolbachia per cell robust z, rep 1 | Wolbachia per cell robust z, rep 2 | Wolbachia per cell robust z, rep 3 | gene knocked down | DRSC id
1.41 | 0.178 | 0.886 | Ars2 | DRSC04893
0.887 | 0.632 | 0.779 | CG16799 | DRSC06626
0.681 | 0.143 | -1.34 | CG16799 | DRSC21553
-3.53 (active) | 0.15 | -1.66 | ed | DRSC00350
-5.66 | 0.646 | -0.564 | ed | DRSC00438
0.687 | 0.963 | -0.116 | ed | DRSC00439
1 | 0.73 | -0.429 | ed | DRSC00478
1.11 | -1.18 | 1.49 | CG10588 | DRSC11628
0.055 | 0.823 | 1.22 | Coq3 | DRSC03168
-1.13 | -0.291 | 0.162 | shf + Coq7 | DRSC18448
0.302 | 0.61 | -0.0675 | CG15118 | DRSC06540
-1.36 | 0.385 | 0.432 | RabX6 | DRSC08223
-5 | -0.0601 | -6.65 | slou | DRSC17058
1.16 | 0.62 | 0.148 | slou | DRSC25233
-1.99 | 0.846 | 0.758 | ssp2 | DRSC11052
-14.5 | -0.842 | 0.376 | ssp2 | DRSC23906
-0.312 | -0.31 | -1.32 | Cyp28c1 | DRSC20236
0.646 | -0.918 | -0.608 | CG6683 | DRSC10694
-0.312 | 0.433 | -0.608 | CG6683 | DRSC25674
0.0253 | -0.545 | 0.0712 | PolD1 | DRSC11138
1.59 | 0.989 | -0.357 | PolD1 | DRSC28966
-0.719 | 0.104 | -0.519 | Rlip | DRSC16828
3.71 (active) | 2.45 | 2.75 | Rpt2 | DRSC16799
2.51 (active) | 2.17 | 3.41 | Rpt2 | DRSC25012
0.341 | 0.769 | -0.104 | CG6761 | DRSC10705
1.09 | 0.775 | -2.07 | CR42546 | DRSC03711
0.597 | 0.807 | -0.515 | CG9593 | DRSC16508
-0.0902 | 0.389 | 0.0199 | CG9503 | DRSC20186
0.379 | -0.284 | -1.21 | CG9503 | DRSC21766
0.104 | -0.996 | -0.563 | PIG-N | DRSC06837
0.257 | -0.134 | -0.408 | CG5676 | DRSC02875
-1.16 | -0.163 | -1.68 | CG15362 | DRSC00392
0.319 | 0.365 | -0.00794 | CG3356 | DRSC04358
0.172 | 1.03 | -0.836 | CG3356 | DRSC28869
-0.118 | 0.178 | -5.13 | CG10035 | DRSC14177
-1.27 | -0.763 | -0.701 | CG10035 | DRSC28663
0.792 | -2.78 | 0.365 | BckdhA | DRSC16395
0.9 | 0.519 | -0.476 | twf | DRSC15466
-2.23 | 1.08 | -0.691 | Mst57Da | DRSC16744
0.00146 | 0.254 | 0.317 | CG14743 | DRSC06479
0.682 | 1 | 0.487 | Indy-2 + CG33934 | DRSC15685
-0.115 | 0.562 | -0.539 | Indy-2 + CG33934 | DRSC15686
-1.43 (active) | -2.41 | -8.74 | rswl | DRSC06923
0.0158 | -3.08 | -1.19 | CG2909 | DRSC18241
1.37 | 0.167 | 0.161 | CG6508 | DRSC02963
0.746 | 0.72 | -10.7 | CG31705 | DRSC01991
-3.23 | 0.0273 | -0.0333 | CG31705 | DRSC30021
-0.548 | -0.633 | -0.419 | CG15143 | DRSC02444
0.756 | -0.00648 | -0.244 | cin + CG42376 | DRSC18752
-0.233 | -1.27 | 0.0779 | cin + CG42376 | DRSC40697
-4.04 | -2.86 | -2.5 | betaNACtes1 | DRSC19534
-1.44 | -1.03 | 0.45 | betaNACtes1 | DRSC26176

5 entries from above, set out differently.
| Wolbachia per cell robust z, rep 1 | Wolbachia per cell robust z, rep 2 | Wolbachia per cell robust z, rep 3 | gene knocked down | DRSC id |
| --- | --- | --- | --- | --- |
| 0.0158 | -3.08 | -1.19 | CG2909 | DRSC18241 |
| 1.37 | 0.167 | 0.161 | CG6508 | DRSC02963 |
| 0.746 | 0.72 | -10.7 | CG31705 | DRSC01991 |
| -3.23 | 0.0273 | -0.0333 | CG31705 | DRSC30021 |
| -0.548 | -0.633 | -0.419 | CG15143 | DRSC02444 |

Further reagents:
Wolbachia per cell robust z, rep 1 | Wolbachia per cell robust z, rep 2 | Wolbachia per cell robust z, rep 3 | gene knocked down | DRSC id
0.726 | 0.837 | 0.147 | ush | DRSC00843
1.17 | 1.28 | 1.23 | ush | DRSC26524
1.2 | -0.899 | 0.923 | CG4301 | DRSC19886
-0.566 | 0.101 | 1.03 | Hmt4-20 | DRSC18482
0.995 | 0.665 | -0.221 | Hmt4-20 | DRSC23921
0.32 | -0.362 | -1.55 | C3G | DRSC17929
0.441 | 1.54 | 1.18 | C3G | DRSC23077
0.264 | 0.681 | 0.623 | C3G | DRSC29081
-1.59 | -0.0659 | 1.44 | CG11099 | DRSC06034
-0.88 | -3.41 | -0.296 | CG43184 | DRSC36531
0.541 | 0.554 | 0.651 | NHP2 | DRSC11229
0.26 | 0.34 | -0.16 | NHP2 | DRSC24264
-0.102 | -7.53 | 0.0227 | TfIIEalpha | DRSC11303
-1.17 | -0.486 | 0.00331 | TfIIEalpha | DRSC27748
0.539 | 0.0129 | 1.11 | CG2889 | DRSC18236
0.0883 | 0.675 | 0.895 | Polr3G | DRSC21511
-0.0091 | -0.603 | -0.286 | olf186-M | DRSC07657
2.11 | 1.21 | -0.189 | CG8170 | DRSC07087
-1.12 | -1.72 | 0.218 | Mayo | DRSC14300
1.26 | 1.07 | 1.37 | Srr | DRSC16382
0.604 | 0.546 | -0.886 | Srr | DRSC27485
0.776 | 0.768 | 1.37 | CG11920 | DRSC14439
0.769 | 0.474 | 0.365 | TTLL6A | DRSC06618
-1.44 | -2.78 | -0.678 | TTLL6A | DRSC24494
-0.462 | 0.218 | -1.55 | CG33687 | DRSC37822
-1.44 | 0.0732 | -1.09 | GCS2beta | DRSC02960
-8.08 (active) | -2.27 | 0.622 | GCS2beta | DRSC30037
-3.71 | 0.787 | 0.248 | mRpS28 | DRSC06939
0.291 | 0.368 | -2.6 | CG8172 | DRSC07089
-3.27 | -0.953 | -0.463 | CG8172 | DRSC22113
0.368 | -0.828 | -1.02 | CG8172 | DRSC25604
-0.3 | 0.206 | 0.536 | CG1103 | DRSC24616
-0.416 | 0.0279 | -0.258 | CG10553 | DRSC14254
0.603 | 0.574 | 0.61 | spen | DRSC00839
0.174 | -0.177 | -2.04 | spen | DRSC37650
